# Assay results as given in ChEMBL document CHEMBL4316619 (Bioorg Med Chem Lett, 2019).
# System: Influenza A virus
# Experiment: Antiviral activity against influenza A virus A/Vietnam/1203/2004 x A/PR/8/34 (H5N1) harboring recombinant NS1 infected in MDCK cells assessed as reduction in virus-induced cytopathic effect measured on day 5 by Celltiter-Glo luminescence assay
Compound,EC50 [µM],EC90 [µM]
COc1cc(-c2ccnc3c2c(C)nn3-c2ccc(C(F)(F)F)cc2)ccc1O,> 50,–
COc1cc(-c2c(C#N)c(N)nc3c2c(C)nn3-c2ccc(F)cc2)ccc1O,–,9.9
